In patent US6562969B1, “Ricin inhibitors and methods for use thereof” (dated 2003):
pIC50, pKi: −log10 of the molar value. Read-outs that look alike come from different tables or passages of the source.

How the values were obtained:
[1] = target: T1, ricin A chain (RTA) (Ricinus communis, UniProt P02879); details: cited from earlier work
[2] = target: T1, ricin A chain (RTA)

Molecule | pKi [2] | pIC50 [2] | also measured
formycin monophosphate |  |  | inhibition of RTA, background statement [1]: not an effective inhibitor
Nc1nc2ncc(CNc3ccc(C(=O)O)cc3)nc2c(=O)[nH]1 | 3.22 |  | pIC50 [1]: 3.22
Cc1cc2c(=O)[nH]c(N)nc2[nH]1 |  | 3.60 | 
Nc1nc2[nH]cc(CNc3ccc(C(=O)O)cc3)c2c(=O)[nH]1 |  | 3.52 | 
Nc1nc2ncc(C(O)C(O)CO)nc2c(=O)[nH]1 (stereo not shown) | < 2.70 |  | 
Nc1nc2[nH]ccc2c(=O)[nH]1 |  | 2.82 | 
